{
  "source": "patent US20260274928A1",
  "about": "(VIR BIOTECHNOLOGY, published 2026)",
  "key": {"[1]": {"molecular_target": "SARS-CoV-2 BQ.1.1 S glycoprotein (SARS-CoV-2 BQ.1.1)", "experiment": "cell-based or functional assay"}, "SARS-CoV-2 CH.1.1 RBD": {"molecular_target": "T1, SARS-CoV-2 CH.1.1 RBD (SARS-CoV-2 CH.1.1)", "T1 construct": "domain: RBD", "experiment": "RBD binding affinity (SPR, see Example 5)"}},
  "data": [
    {"binder": "S2V29-v1.2 (antibody, V domains shown) VH: EVQLVESGGSVVQPGRALRLSCAASGITFSSFGMYWVRQAPGKGLEWLGVIAYDGSNTYYADSVKGRFTISRDNSKNTLYLQMNSLRIEDTAVYYCAKDYYPLLSYYYGLDVWGQGTTVTVSS VL: QSVLTQPRSVSGSPGQSVTISCTGTSSDVGAYNYVSWYQQHPGKAPKFMIYDVDQRPSGVPDRFSGSKSGNTASLIISGLQAEDEADYYCSSYAGSYIWVFGGGTQLTVL", "values": [
      {"measurement": "FC Compared to BQ.1.1", "setting": "[1]", "result": 1, "unit": "fold"}
    ]},
    {"binder": "S2V29-v37.2 (antibody, V domains shown) VH: EVQLVESGGSVVQPGRALRLSCAASGITFSSFGMYWVRQAPGKGLEWLGYIAYDGSDTYYADSVKGRFTISRDNSKNTLYLQMNSLRIEDTAVYYCAKDYYPLLSYYYGLDVWGQGTTVTVSS VL: QSVLTQPRSVSGSPGQSVTISCTGTSSDVGAYNYVSWYQQHPGKAPKFMIYDVDQRPSGVPDRFSGSKSGNTASLIISGLQAEDEADYYCSSYAGSYIWVFGGGTQLTVL", "values": [
      {"measurement": "FC Compared to BQ.1.1", "setting": "[1]", "result": 1, "unit": "fold"},
      {"measurement": "Kd", "setting": "SARS-CoV-2 CH.1.1 RBD", "result": 0.09, "unit": "nM"}
    ]}
  ]
}
